Compound potency records, mixed from different reports. Data source: NIAID ChemDB in PubChem.

All rows: whole-cell or culture tests; agent: Human cytomegalovirus; endpoint: EC50

Blank or dashed fields: not listed here. Neighbouring rows are from separate reports. ECn: concentration that inhibits the pathogen or its effect by n%.

| smiles | cell line | strain | read by | value |
|---|---|---|---|---|
| Nc1nc(Cl)nc2c1ncn2/C=C1\CC1CO | HFF | TOWNE | plaque count | >100 µM |
| Cc1cc(=O)oc2cc(O)c(O)cc12 | HEL | DAVIS | plaque count | 9.5 µg/mL |
| Nc1ncnc2c1ncn2[C@@H]1C[C@H](O)[C@@H](O)[C@H]1O | HEL | DAVIS (20 PFU) | plaque count | 0.4 µg/mL |
| Nc1nc2c(ncn2COC(CO)CO)c(=O)[nH]1 | HFF | TOWNE | cytopathic effect | 3.4 µM |
| O=c1[nH]c(=O)n([C@H]2C[C@H](O)[C@@H](COP3(=O)OCc4cc(Cl)ccc4O3)O2)cc1/C=C/Br | HELF | AD169 | plaque count | >128 µg/mL |
| Nc1nccc2c1ncn2[C@@H]1C[C@H](CO)[C@@H](O)[C@H]1O | HEL | AD-169 (100 PFU) | cytopathic effect | 4.72 µg/mL |
| Nc1ccnc2c1ncn2[C@H]1C[C@H](O)[C@@H](COP(=O)(O)COC(=O)[C@@H](N)CC(=O)O)O1 | HEL | DAVID | - | >100 µM |
| Cc1ccc(Nc2ccc(Nc3ccc(C)cc3S(=O)(=O)[O-])c3c2C(=O)c2c(O)ccc(O)c2C3=O)c(S(=O)(=O)[O-])c1.[Na+].[Na+] | HFF | AD169 | cytopathic effect | 50 µM |
| Nc1nccc2c1ncn2[C@@H]1C=C(CO)[C@@H](O)[C@H]1O | HEL | AD-169 (20 PFU) | plaque count | 0.15 µg/mL |
| CN(C)S(=O)(=O)Nc1ccc(S(=O)(=O)Nc2ccc(NC(=O)C(C)(C)C)cc2)cc1 | - | - | - | 2.6 µM |
| OC[C@H]1O[C@@H](n2cnc3c(Cl)nccc32)C[C@@H]1O | HEL | AD169 | - | >100 µM |
| Nc1nccc2c1ncn2[C@@H]1O[C@H](CO)[C@@H](O)[C@H]1O | HEL | DAVIS (20 PFU) | plaque count | 3.5 µg/mL |
| Nc1[nH]c(=O)nc2c1ncn2/C=C1/C[C@H]1CO | HFF | TOWNE | plaque count | >100 µM |
| CC(=O)Nc1ccc(Nc2cc(S(=O)(=O)O)c(N)c3c2C(=O)c2ccccc2C3=O)cc1 | HFF | EC | plaque count | 20 µM |
| CC(=O)O[C@H]1C[C@H](n2cc(/C=C/Br)c(=O)[nH]c2=O)O[C@@H]1COP1(=O)OCc2ccccc2O1 | HELF | AD169 | plaque count | >128 µg/mL |
| O=C(O)CN(CC(=O)O)Cc1cc2c(c(O)c1O)C(=O)c1ccccc1C2=O | HFF | AD169 | cytopathic effect | >100 µM |
| CCOC(=O)c1cc(O)c(O)c(O)c1 | HEL | DAVIS | plaque count | 7.4 µg/mL |
| O=C(NCCCC[C@@H](CNC(=O)c1cccc(O)c1O)NC(=O)c1cccc(O)c1O)c1cccc(O)c1O | - | AD169 | - | 0.7 µg/mL |
| CC(C)(C)c1cccc2c1OP(=O)(OC[C@H]1O[C@@H](n3cc(/C=C/Br)c(=O)[nH]c3=O)C[C@@H]1O)OC2 | HELF | AD169 | plaque count | >128 µg/mL |
| CCCOC(=O)c1cc(O)c(O)c(O)c1 | HEL | AD169 | plaque count | 12 µg/mL |
| Cn1c2ccccc2c2c3c(c4c5ccccc5n(CCC#N)c4c21)CNC3=O | HEF | Isolate 6 | plaque count | 0.009 µM |
| NCC(O)c1ccc(O)c(O)c1 | HEL | AD169 | plaque count | 57 µg/mL |
| CC1CNCCN1S(=O)(=O)c1cccc2cnccc12 | HEF | Isolate 6 | plaque count | 23.6 µM |
| CC1OP(=O)(OC[C@H]2O[C@@H](n3cc(/C=C/Br)c(=O)[nH]c3=O)C[C@@H]2O)Oc2cccc(Cl)c21 | HELF | AD169 | plaque count | >128 µg/mL |
| O=C(NCc1ccc(Cl)cc1)c1ccc2ccc(/C=C/c3ccccc3)nc2c1O | - | - | - | 170 µM |
| Nc1[nH]c(=O)nc2c1ncn2/C=C1/C[C@@H]1CO | HFF | AD169 | cytopathic effect | >85.8 µM |
| O=C(Nc1cccc([N+](=O)[O-])c1)c1cc(Cl)c2ccccc2c1O | U373 | - | - | 0.1 µM |
| CC[C@H](C)[C@H](N)C(=O)O[C@H]1C[C@H](n2cc(/C=C/Br)c(=O)[nH]c2=O)O[C@@H]1COP1(=O)OCc2cccc(C)c2O1 | HELF | AD169 | plaque count | >128 µg/mL |
| O[C@@H]1C(n2c(Cl)nc3cc(Cl)c(Cl)cc32)OC[C@@H]1O | - | - | - | 4.9 µM |
| COC(=O)c1cc(O)c(O)c(O)c1 | HEL | DAVIS | plaque count | 7.6 µg/mL |
| O=CNc1cn(-c2ccc(F)cc2)c2cc(-c3ccncc3)ccc2c1=O | - | - | plaque count | 0.048 µg/mL |
| Nc1nc2c(ncn2COC(CO)CO)c(=O)[nH]1 | HEL | DAVIS | - | 5.2 µM |
| C[C@@H](N)C(=O)O[C@H]1C[C@H](n2cc(/C=C/Br)c(=O)[nH]c2=O)O[C@@H]1COP1(=O)OCc2ccccc2O1 | HELF | AD169 | plaque count | >128 µg/mL |
| Cc1ccc(Nc2ccc(Nc3ccc(C)cc3)c3c2C(=O)c2ccccc2C3=O)cc1 | HFF | AD169 | cytopathic effect | >2 µM |
| COC(=O)CN(CC(=O)OC)P(=O)(OC[C@H]1O[C@@H](n2cc(/C=C/Br)c(=O)[nH]c2=O)C[C@@H]1O)Oc1ccccc1 | HEL | DAVIS | - | >100 µM |
| O=c1cc(-c2ccc(O)c(O)c2)oc2cc(O)cc(O)c12 | HEF | Isolate 6 | plaque count | 8.4 µM |
| Cc1cc(C)c(S(=O)(=O)O)c(C)c1Nc1ccc(Nc2c(C)cc(C)c(S(=O)(=O)O)c2C)c2c1C(=O)c1ccccc1C2=O | HFF | AD169 | cytopathic effect | >200 µM |
| Cc1cccc2c1OP(=O)(OC[C@H]1O[C@@H](n3cc(/C=C/Br)c(=O)[nH]c3=O)C[C@@H]1OC(=O)[C@H](N)Cc1ccccc1)OC2 | HELF | AD169 | plaque count | >128 µg/mL |
| CC(C)NCC(O)c1ccc(O)c(O)c1 | HEL | AD169 | plaque count | 81 µg/mL |
| Cc1cc(C)c(Nc2cc(S(=O)(=O)O)c(N)c3c2C(=O)c2ccccc2C3=O)c(C)c1 | HFF | AD169 | cytopathic effect | 7 µM |
| C[C@@H]1C[C@@H](n2cnc3c(N)ncnc32)[C@H](O)[C@@H]1O | HEL | AD-169 (20 PFU) | plaque count | 175 µg/mL |
| Nc1ncnc2c1ccn2[C@H]1C[C@H](O)[C@@H](CO)O1 | HEL | DAVIS | - | >100 µM |
| O=c1[nH]cccc1O | HEL | DAVIS | plaque count | >200 µg/mL |
| O=C1c2ccccc2C(=O)c2c1cc(S(=O)(=O)O)c(O)c2O | HFF | AD169 | cytopathic effect | >100 µM |
| C[C@H](N)C(=O)OCP(=O)(OC[C@H]1O[C@@H](n2cnc3c(N)ccnc32)C[C@@H]1O)Oc1ccccc1 | HEL | AD169 | - | >100 µM |

Repeating the final 3 entries:

smiles	cell line	strain	read by	value
O=c1[nH]cccc1O	HEL	DAVIS	plaque count	>200 µg/mL
O=C1c2ccccc2C(=O)c2c1cc(S(=O)(=O)O)c(O)c2O	HFF	AD169	cytopathic effect	>100 µM
C[C@H](N)C(=O)OCP(=O)(OC[C@H]1O[C@@H](n2cnc3c(N)ccnc32)C[C@@H]1O)Oc1ccccc1	HEL	AD169	-	>100 µM